Data: patent US20230233533A1, “COMPOSITIONS, METHODS OF TREATING AND PREVENTING FUNGAL INFECTIONS, AND METHODS OF INHIBITING PRP8 INTEIN EXPRESSION” (Health Research, Inc., priority 2020, published 2023)

Tested on: C. neoformans H99 strain
Test: Fungal susceptibility test, broth microdilution MIC
Assay type: cell-based, Cryptococcus neoformans
Conditions: CC50 A549 / MIC C. neoformans
Experimental: Fungal susceptibility test—The fungal susceptibility test was carried out with a compound concentration series as described. […] The broth microdilution method was used to determine the compound MIC values against C. neoformans.
Fungal susceptibility test—The fungal susceptibility test was carried out with a compound concentration series as described. […] Microbes. Infect. […] The broth microdilution method was used to determine the compound MIC values against C. neoformans.

Compound	TI, therapeutic index (CC50/MIC)
O=C(Nc1cc(F)c(F)c(F)c1)c1nnsc1[S+]([O-])c1ccc(Cl)cc1 (centres unmarked) [JMX1044-2, 5-((4-Chlorophenyl)sulfinyl)-N-(3,4,5-trifluorophenyl)-1,2,3-thiadiazole-4-carboxamide]	1.0
O=C(Nc1c(F)cc(F)cc1F)c1nnsc1S(=O)(=O)c1ccc(Cl)cc1 [JMX1045, 5-((4-Chlorophenyl)sulfonyl)-N-(2,4,6-trifluorophenyl)-1,2,3-thiadiazole-4-carboxamide]	1.0
O=C(Nc1c(F)cc(F)cc1F)c1nnsc1[S+]([O-])c1ccc(Cl)cc1 (centres unmarked) [JMX1045-2, 5-((4-Chlorophenyl)sulfinyl)-N-(2,4,6-trifluorophenyl)-1,2,3-thiadiazole-4-carboxamide]	19.6
O=C(Nc1ccc(Cl)c(F)c1)c1nnsc1S(=O)(=O)c1ccc(Cl)cc1 [JMX1046, N-(4-Chloro-3-fluorophenyl)-5-((4-chlorophenyl)sulfonyl)-1,2,3-thiadiazole-4-carboxamide]	<2.9
O=C(Nc1ccc(Cl)c(F)c1)c1nnsc1[S+]([O-])c1ccc(Cl)cc1 (centres unmarked) [JMX1046-2, N-(4-Chloro-3-fluorophenyl)-5-((4-chlorophenyl)sulfinyl)-1,2,3-thiadiazole-4-carboxamide]	95.7
O=C(Nc1ccc(F)cc1)c1nnsc1S(=O)(=O)c1ccc(Cl)cc1Cl [JMX1059, 5-((2,4-Dichlorophenyl)sulfonyl)-N-(4-fluorophenyl)-1,2,3-thiadiazole-4-carboxamide]	5.4
O=C(Nc1ccc(F)cc1)c1nnsc1S(=O)(=O)c1ccc(F)c(F)c1 [JMX1060, 5-((3,4-Difluorophenyl)sulfonyl)-N-(4-fluorophenyl)-1,2,3-thiadiazole-4-carboxamide]	1.2
O=C(Nc1ccc(F)cc1)c1nnsc1S(=O)(=O)c1ccc(F)cc1 [JMX1061, N-(4-Fluorophenyl)-5-((4-fluorophenyl)sulfonyl)-1,2,3-thiadiazole-4-carboxamide]	<1.4
O=C(Nc1ccc(F)cc1)c1nnsc1S(=O)(=O)c1ccc(F)cc1F [JMX1062, 5-((2,4-Difluorophenyl)sulfonyl)-N-(4-fluorophenyl)-1,2,3-thiadiazole-4-carboxamide]	<1.3
O=C(Nc1ccc(F)cc1)c1nnsc1S(=O)(=O)c1cccc(C(F)(F)F)c1 [JMX1063, N-(4-Fluorophenyl)-5-((3-(trifluoromethyl)phenyl)sulfonyl)-1,2,3-thiadiazole-4-carboxamide]	21.9
O=C(Nc1ccc(F)cc1)c1nnsc1[S+]([O-])c1cccc(C(F)(F)F)c1 (centres unmarked) [JMX1063-2, N-(4-Fluorophenyl)-5-((3-(trifluoromethyl)phenyl)sulfinyl)-1,2,3-thiadiazole-4-carboxamide]	15.0
O=C(Nc1ccc(F)cc1)c1nnsc1S(=O)(=O)c1ccc(Cl)c(Cl)c1 [JMX1064, 5-((3,4-Dichlorophenyl)sulfonyl)-N-(4-fluorophenyl)-1,2,3-thiadiazole-4-carboxamide]	50.1
O=C(Nc1ccc(F)cc1)c1nnsc1[S+]([O-])c1ccc(Cl)c(Cl)c1 (centres unmarked) [JMX1064-2, 5-((3,4-Dichlorophenyl)sulfinyl)-N-(4-fluorophenyl)-1,2,3-thiadiazole-4-carboxamide]	<2.4
O=C(Nc1cccc(F)c1)c1nnsc1S(=O)(=O)c1ccc(Cl)cc1 [JMX 871, 5-((4-Chlorophenyl)sulfonyl)-N-(3-fluorophenyl)-1,2,3-thiadiazole-4-carboxamide]	44.9
